# According to the supplement of paper PMC9931576:
# Human monoclonal antibodies against the spike receptor-binding domain (heavy:light variable regions). IC50 against pseudoviruses bearing the spike of naturally observed variants; lower = stronger; >10 µg/ml means not reached at the top dose. No active / inactive call. The stated detection limit is 0.0005 µg/ml; values near or below 0.001 µg/ml lie at the floor of the assay.
# B1: BD55-5794 (protein)
# chain 1: EVHLVESGGGLVQPGGSLRLSCAGSGFTFSSYWMSWVRQAPGKGLEWVANINQDGSEKNYVDSVKGRFTISRDNAKNSLSLQMNSLRAEDTAVYFCARSITLGGLIIIPPEYFDYWGQGTLVTVSS
# chain 2: SYELTQPPSVSVSPGQTARITCSGDAFPNQYAHWYQQKPGQAPVVVIYKDSERSSGIPERFSGSSSGTTVTLTISGVQAEDEADYYCQSADSSGINYVFGAGTKVTVL
# B2: BD55-5810 (protein)
# chain 1: EVQLVESGGGLVQPGRSLRLSCKTSGFIVGDHCMSWVRQAPGKGLEWVGFMRSNTLGGTAEYAASVEGRFTVSRDDSKGIAYLQMNSLKTEDTAVYYCSRMGIMVSTYLGYYYAMDVWGQGTTVTVS
# chain 2: DVQMTQSPSTLSASVGDRVTITCRANESVSNWLAWYQQKPGKAPKLLIYAASSLESGAPSRFSGTGSGTEFTLTINSLQADDFATYYCQQYNGFMYTFGQGTKLEIK
# B3: BD55-5792 (protein)
# chain 1: QVQLVQSGAEVKKPGASVKVSCKASGYTFTDYYMHWVRQAPGQGLEWMGWINPNTGGTNYAQKFQGRVTMTRDTSISTAYMELSRLRSDDTALYYCARPAADFDWLRSGMDVWGQGTTVTVSS
# chain 2: DIQMTQSPSSLSASVGDRVTITCRASQSIDNDLTWYQRKPGKAPKLLIFSASSLHSGVPSRFSGSGFGTDFTLTISGLQPEDFATYYCQQSNSSPLTFGQGTKLEIK
# B4: BD55-5853 (protein)
# chain 1: EVHLVESGGGLVQPDRSLRLSCAASGFTFDDYSMHWVRQAPGKGLEWVSSINWNSVRIDYADSVKGRFTISRDNAKNSLYLQMNSLRAEDTALYYCAKPLSSGWTFSGTTDDAFEIWGQGTMVTVSS
# chain 2: QSALTQPPSVSGSPGQSVTISCTGTSSDVGSYHRVSWYQQPPGTAPKLIIYEVSNRPSGVPDRFSGSKSGNTASLTISGLQAEDEADYYCGSYTITNTWVFGGGTKLTVL
# B5: BD55-5878 (protein)
# chain 1: EVQLVESGGGVVQPGGSLRLSCVASGFIFDDYAMHWVRQAPGKGLEWVSLISGDGLSTYYADSVRGRFTISRDSSKKSLYLQMNSLRIEDTALYYCAKDTTYFDFLTGSGMDVWGQGTTVTVS
# chain 2: NFMLTQPHSVSESPGKTVTISCTRSSGNIASNYVHWYQQRPGSAPTTVIYEDNQRPSGVPDRFSGSIDSSSNSASLTISGLTTEDEADYYCQSFESNNRNWVFGGGTKLTVL
# B6: BD55-5839 (protein)
# chain 1: QLQLQESGPGLVKPSETLSLTCTVSGGSISSTSYSWAWIRQPPGKGLEWIGSINYSGSASYNPSLKIRVTTSVDTSKNQFSLKLSSVTAADTAVYYCARHTGDYEFDYWGQGTLVTVSS
# chain 2: DIQMTQSPSTLSASVGDRVTITCRASQSISRWLAWYQQKPGKAPKLLIYKASILESGVPSRFSGSGSGTEFTLTISSLQPDDFASYYCQQYNSYSTFGGGTKVEIK
# B7: BD55-5865 (protein)
# chain 1: EVQLVESGGGLVKPGGSLRLSCAASGFSFTTHTMSWVRQALGKGLEWVSSIDGRTGFTYYADSVKGRFTISRDNAKNSLYLQISSLRAEDTAVYYCARDENLVRGFSGYEPTLYYGMDVWGQGTTVTVSS
# chain 2: QSVLTQPPSVSGAPGQRVTISCTGSGSNIGAGYDVHWYQQLPGTAPKLLIYANNNRPSGVPDRFSGSKSGTSASLAITGLQAEDEADYYCQSYDSGSLSGSKVFGGGTKLTVL
# B8: BD55-5830 (protein)
# chain 1: QVQLVQSGAEVKKPGASVKVSCKASGYTFTNYDINWVRQATGQGPEWMGWMNPDSGDTGYAHKFQGRVAMTRDTSINTAYMELSSLRSEDTAVYYCAITSSPGGFSVKSYYYYFVLDVWGQGTTVTVSS
# chain 2: DIQMTQSPSSLSASVGDRVTITCRASQSISTYLNWYQQKPGKAPNLLIYSASSLQSGVPSRFSGSGSGTDFILTISSLQPEDFATYYCQQSYTTPPTFGQGTKVEIK
# B9: BD55-1096 (protein)
# chain 1: QVQLVESGGGVVRPGRSLRVSCAASGFSFSNYGMNWVRQAPGKGLEWVAMIWFDGSRKEYVDSVKGRFTISRDNPKNTLYLQMNSLRGDDTAVYYCAKSGRFYDSSGYEGLDALDLWGQGTMVTVSS
# chain 2: IQLTQSPSSLSASVGDRVTITCRASQGIGRALAWYQQKPGKAPELLIYEASSLQTGVPSRFSGSGSGTDFTLSISSLQPEDFGTFFCQQFNYYPRTFGQGTKVEIK
# B10: BD55-5876 (protein)
# chain 1: VQLVQSGAELKKPGASVKVSCKASGYIFSNFGISWVRQAPGQGLEWMGWISTSNGNTKYAQNVQGRVTMTIDKSSSTAFMELTSLRSDDTAFYYCARDGEQLLQSYFDYWGQGTLVTVSS
# chain 2: SYVLTQPPSVSVAPGETARITCGGVDIGSKSVHWYQQMPGQAPVLVIYYDGDRPSGIPERFSGSNSGNTATLTISRVEAGDEADYYCQVWVGSSDHHWVFGGGTKLTVL
# B11: BD55-5856 (protein)
# chain 1: EVQLLESGGGLVQRGGSLRLSCAASGFTISSYGMSWVRQAPGKGLEWVSSISGSGGNTYYADSVQGRITISRDNSKNTLYLQMNSLRAEDTAVYFCAREQLWFGEHTFDYWGQGTLVTVSS
# chain 2: DIQLTQSPSFLSASVGDRVTISCRASPGISSYLAWYQQKPGKAPKLLIYAASSLQSGVPSRFSGSGSGTEFTLTISSLQPEDFATYYCQQLNSYPPITFGQGTRLEIK
# B12: BD55-5832 (protein)
# chain 1: EVQLVESGGGLVKPGESLRLSCAASASTFTSYYMNWVRQAPGKGLEWVSSISSTSSYIYYADSVKGRFTISRDNAKASVSLQMNRLRVDDTAMYYCAGDPGYDFSTGYYQAIDSWGQGTLVTVSS
# chain 2: QPVLTQSSSASASLGSSVKLTCTLSSGHGNYILAWHQQQPGKAPRFLMKVEVSGNYFRGSGVPDRFSGSASGADRYLTISNLQSGDEATYYCDTWDSNTRLIGGGTKLTVL
# Assays:
# Experiment in all cases: pseudovirus neutralization IC50; higher = weaker neutralization
# [1] = target: SARS-CoV-2 Omicron BA.1 spike pseudovirus
# Description: (§1)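 Single-round VSV luciferase pseudovirus mixed with antibody dilutions for 1 h and put on Huh-7 cells for about a day; IC50 from the dose curve.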
# [2] = target: SARS-CoV-2 Omicron BA.2 spike pseudovirus
# Description: as §1
# [3] = target: SARS-CoV-2 Omicron BA.2.75 spike pseudovirus
# Description: as §1
# [4] = target: SARS-CoV-2 Omicron BA.5 spike pseudovirus
# Description: as §1
# [5] = target: SARS-CoV-2 Omicron BQ.1.1 spike pseudovirus
# Description: as §1
# [6] = target: SARS-CoV-2 Omicron XBB spike pseudovirus
# Description: as §1
# [7] = target: SARS-CoV-2 early D614G spike pseudovirus
# Description: as §1
Binder,pseudovirus neutralization IC50 [1] [µg/mL],pseudovirus neutralization IC50 [2] [µg/mL],pseudovirus neutralization IC50 [3] [µg/mL],pseudovirus neutralization IC50 [4] [µg/mL],pseudovirus neutralization IC50 [5] [µg/mL],pseudovirus neutralization IC50 [6] [µg/mL],pseudovirus neutralization IC50 [7] [µg/mL]
B1,> 10,> 10,> 10,> 10,> 10,> 10,0.921
B2,> 10,> 10,> 10,> 10,> 10,> 10,0.174
B3,> 10,> 10,> 10,> 10,> 10,> 10,0.364
B4,> 10,> 10,> 10,> 10,> 10,> 10,0.336
B5,> 10,> 10,> 10,> 10,> 10,> 10,0.0707
B6,> 10,> 10,> 10,> 10,> 10,> 10,0.958
B7,> 10,> 10,> 10,> 10,> 10,> 10,0.0301
B8,> 10,> 10,> 10,> 10,> 10,> 10,1.27
B9,> 10,> 10,> 10,> 10,> 10,> 10,0.037
B10,> 10,> 10,> 10,> 10,> 10,> 10,> 10
B11,> 10,> 10,> 10,> 10,> 10,> 10,0.00186
B12,> 10,> 10,> 10,> 10,> 10,> 10,0.0117
